Experimental data: ChEMBL document CHEMBL1138928, “Toward orthopoxvirus countermeasures: a novel heteromorphic nucleoside of unusual structure” (J Med Chem, 2006)

Substrate: N#CC1=C(N)OC2=C(C(=O)CCC2)C1c1cn([C@H]2C[C@@H](O)[C@@H](CO)O2)c(=O)[nH]c1=O
Conditions: Orthopoxvirus vaccinia

B1: Thymidine kinase, cytosolic (Homo sapiens), P04183 (protein)
chain: MSCINLPTVLPGSPSKTRGQIQVILGPMFSGKSTELMRRVRRFQIAQYKCLVIKYAKDTRYSSSFCTHDRNTMEALPACLLRDVAQEALGVAVIGIDEGQFFPDIVEFCEAMANAGKTVIVAALDGTFQRKPFGAILNLVPLAESVVKLTAVCMECFREAAYTKRLGTEKEVEVIGGADKYHSVCRLCYFKKASGQPAGPDNKENCPVPGKPGEAVAARKLFAPQQILQCSPAN
- Km: 43 µM
